## Sequence variants of PSTVd stem 3 after infection

PSTVd intermediate strain, stem 3: wild type GUGGUUCCGGAACCGC, pool pattern GUGGUUCCGNANNCNN; upper and lower strand joined, each 5' to 3', the first 8 letters being the upper strand.

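A pool of all variants was put on leaves of three Nicotiana benthamiana plants. Samples came from the inoculated region at 5 days, the leaf margin at 10 and upper systemic leaves at 12.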

Values are reads per thousand in the sample; higher means more abundant, 0 means not found. Each site shows the three plants. "Pool" is the share in the plasmid pool used as inoculum, on the same scale. The inoculated region was read from the minus strand, the other sites from the plus strand. Sequences that differ at fixed positions probably stem from PCR or sequencing errors, and defective variants can be carried along by functional ones. Wild type was 17.3 per thousand in the pool and the most common sequence in every sample (inoculated region 330, 345, 235; leaf margin 794, 766, 816; systemic leaves 830, 792, 869). With 27,691-54,225 reads a sample, very low values are single reads.

sequence	pool	inoculated region	leaf margin	systemic leaves
GUGGUUCCGUACCCUU	0.754	0.267 / 0.474 / 0.216	0 / 0 / 0.0361	0 / 0 / 0
GUGGUUCCGUACGCAA	0.769	0.453 / 0.173 / 0.216	0 / 0 / 0.0361	0 / 0 / 0
GUGGUUCCGUACGCAC	1.11	0.347 / 0.388 / 0.216	0 / 0.0318 / 0.0361	0 / 0 / 0
GUGGUUCCGUACGCAG	1.02	0.426 / 0.259 / 0.216	0.0283 / 0 / 0	0 / 0 / 0
GUGGUUCCGUACGCAU	0.769	1.01 / 0.668 / 0.730	0 / 0.0318 / 0.433	0 / 0 / 0
GUGGUUCCGUACGCCA	1.05	0.373 / 0.367 / 0.351	0 / 0 / 0	0 / 0 / 0
GUGGUUCCGUACGCCC	1.00	0.347 / 0.388 / 0.216	0 / 0 / 0	0 / 0 / 0
GUGGUUCCGUACGCCG	0.785	0.400 / 0.410 / 0.324	0.0283 / 0 / 0.0361	0 / 0 / 0
GUGGUUCCGUACGCCU	0.800	0.187 / 0.453 / 0.216	0 / 0.0318 / 0.0722	0 / 0 / 0
GUGGUUCCGUACGCGA	0.893	0.347 / 0.194 / 0.297	0 / 0.0636 / 0	0 / 0 / 0
GUGGUUCCGUACGCGC	0.877	0.267 / 0.323 / 0.216	0 / 0.0318 / 0	0 / 0 / 0
GUGGUUCCGUACGCGG	0.693	0.453 / 0.259 / 0.108	0.0283 / 0 / 0.0361	0 / 0 / 0
GUGGUUCCGUACGCGU	0.954	0.347 / 0.453 / 0.243	0 / 0.0636 / 0.0361	0.0932 / 0 / 0
GUGGUUCCGUACGCUA	0.708	0.533 / 0.388 / 0.297	0.0283 / 0 / 0.0361	0 / 0 / 0
GUGGUUCCGUACGCUC	1.12	0.320 / 0.345 / 0.243	0 / 0 / 0	0 / 0 / 0
GUGGUUCCGUACGCUG	0.970	0.453 / 0.323 / 0.324	0 / 0 / 0	0 / 0 / 0
GUGGUUCCGUACGCUU	0.739	0.347 / 0.323 / 0.297	0.0283 / 0 / 0.0361	0 / 0 / 0
GUGGUUCCGUACUCAA	1.63	1.36 / 1.36 / 1.76	0 / 0 / 0.0361	0.205 / 0.0184 / 0
GUGGUUCCGUACUCAC	0.785	0.906 / 0.668 / 0.946	0 / 0 / 0.289	0 / 0 / 0
GUGGUUCCGUACUCAG	1.06	0.613 / 0.647 / 0.919	0 / 0 / 0	0 / 0 / 0
GUGGUUCCGUACUCAU	0.800	0.800 / 0.733 / 0.973	0 / 1.34 / 0.325	0 / 0 / 0
GUGGUUCCGUACUCCA	0.846	0.240 / 0.367 / 0.216	0 / 0 / 0.0361	0 / 0 / 0
GUGGUUCCGUACUCCC	0.831	0.293 / 0.453 / 0.270	0 / 0.0318 / 0.0361	0 / 0 / 0
GUGGUUCCGUACUCCG	0.723	0.400 / 0.302 / 0.243	0 / 0 / 0	0 / 0 / 0
GUGGUUCCGUACUCCU	0.816	0.666 / 0.776 / 0.973	0.0283 / 0 / 0.217	0.0932 / 0.0369 / 0
GUGGUUCCGUACUCGA	1.54	0.533 / 0.367 / 0.378	0 / 0.0318 / 0	0.0186 / 0 / 0
GUGGUUCCGUACUCGC	0.769	0.347 / 0.302 / 0.189	0.0283 / 0 / 0	0 / 0 / 0
GUGGUUCCGUACUCGG	0.816	0.267 / 0.280 / 0.324	0 / 0 / 0	0 / 0 / 0
GUGGUUCCGUACUCGU	0.908	0.746 / 0.819 / 0.838	0 / 0 / 0.0361	0 / 0 / 0
GUGGUUCCGUACUCUA	0.954	0.560 / 0.690 / 0.459	0 / 0 / 0	0.0373 / 0 / 0
GUGGUUCCGUACUCUC	0.862	0.480 / 0.431 / 0.270	0 / 0 / 0.0361	0 / 0 / 0
GUGGUUCCGUACUCUG	0.769	0.347 / 0.431 / 0.405	0 / 0.0318 / 0.0361	0 / 0 / 0
GUGGUUCCGUACUCUU	1.26	0.933 / 0.755 / 0.811	0.0283 / 0 / 0.0722	0 / 0.0553 / 0
GUGGUUCCGUAGACAA	0.800	0.800 / 0.755 / 0.838	0.0283 / 0.0318 / 0.542	0 / 0 / 0
GUGGUUCCGUAGACAC	0.769	0.880 / 0.970 / 0.622	0 / 0.0636 / 0.361	0 / 0 / 0
GUGGUUCCGUAGACAG	0.831	0.826 / 0.647 / 1.03	0 / 0 / 0	0 / 0 / 0
GUGGUUCCGUAGACAU	0.785	0.666 / 0.561 / 0.594	0 / 0.986 / 0.325	0 / 0 / 0
GUGGUUCCGUAGACCA	0.785	0.160 / 0.388 / 0.243	0 / 0 / 0	0 / 0 / 0
GUGGUUCCGUAGACCC	1.37	1.09 / 0.906 / 0.540	0 / 0.0636 / 0	0 / 0 / 0
GUGGUUCCGUAGACCG	0.985	0.320 / 0.216 / 0.216	0 / 0.0318 / 0	0 / 0 / 0
GUGGUUCCGUAGACCU	0.908	0.880 / 0.625 / 1.08	0 / 0 / 0.0361	0 / 0 / 0
GUGGUUCCGUAGACGA	1.00	0.506 / 0.129 / 0.243	0 / 0 / 0	0.0186 / 0 / 0
GUGGUUCCGUAGACGC	0.816	0.213 / 0.345 / 0.135	0 / 0 / 0.0361	0 / 0 / 0
GUGGUUCCGUAGACGG	0.816	0.293 / 0.237 / 0.189	0 / 0 / 0.0361	0 / 0 / 0
GUGGUUCCGUAGACGU	0.816	0.640 / 0.755 / 1.00	0 / 0 / 0	0 / 0 / 0
GUGGUUCCGUAGACUA	0.723	0.373 / 0.367 / 0.324	0.0283 / 0 / 0	0 / 0 / 0
GUGGUUCCGUAGACUC	0.785	0.480 / 0.367 / 0.135	0 / 0 / 0.0361	0 / 0 / 0
GUGGUUCCGUAGACUG	0.877	0.293 / 0.345 / 0.189	0 / 0 / 0	0 / 0 / 0
GUGGUUCCGUAGACUU	1.00	0.933 / 0.798 / 0.892	0 / 1.30 / 0.542	0 / 0 / 0
GUGGUUCCGUAGCCAA	0.846	0.720 / 0.647 / 0.757	0.0283 / 0 / 0.0722	0 / 0 / 0
GUGGUUCCGUAGCCAC	1.43	0.746 / 0.970 / 1.05	0.0283 / 0 / 0	0.242 / 0 / 0
GUGGUUCCGUAGCCAG	0.877	0.880 / 0.604 / 1.03	0 / 0.0318 / 0	0 / 0 / 0
GUGGUUCCGUAGCCAU	0.554	0.800 / 0.625 / 0.892	0 / 0.0954 / 0	0 / 0 / 0
GUGGUUCCGUAGCCCA	0.708	0.293 / 0.388 / 0.405	0 / 0 / 0.0361	0 / 0 / 0
GUGGUUCCGUAGCCCC	0.970	0.400 / 0.323 / 0.378	0 / 0 / 0.0361	0 / 0 / 0
GUGGUUCCGUAGCCCG	0.739	0.453 / 0.431 / 0.270	0 / 0.0318 / 0.0722	0 / 0 / 0
GUGGUUCCGUAGCCCU	0.785	0.800 / 0.647 / 0.811	0.0283 / 0 / 0.289	0 / 0 / 0
GUGGUUCCGUAGCCGA	0.831	0.347 / 0.367 / 0.162	0 / 0 / 0	0 / 0 / 0
GUGGUUCCGUAGCCGC	0.954	0.187 / 0.474 / 0.270	0.0283 / 0 / 0	0 / 0 / 0
GUGGUUCCGUAGCCGG	0.816	0.320 / 0.410 / 0.216	0 / 0 / 0	0 / 0 / 0
GUGGUUCCGUAGCCGU	1.46	1.17 / 0.755 / 0.946	0 / 0 / 0	0 / 0 / 0
GUGGUUCCGUAGCCUA	1.43	0.533 / 0.690 / 0.649	0.0283 / 0 / 0	0.0186 / 0 / 0.0973
GUGGUUCCGUAGCCUC	1.85	1.04 / 0.819 / 1.19	0 / 0.0318 / 0.0722	0 / 0 / 0
GUGGUUCCGUAGCCUG	0.785	0.347 / 0.474 / 0.270	0.0283 / 0 / 0	0 / 0 / 0
GUGGUUCCGUAGCCUU	1.06	0.853 / 0.582 / 0.649	0 / 0.0318 / 0	0 / 0 / 0
GUGGUUCCGUAGGCAA	0.800	1.04 / 0.561 / 0.865	0 / 0.0318 / 0.433	0 / 0 / 0
GUGGUUCCGUAGGCAC	0.954	0.853 / 0.690 / 1.00	0.0283 / 0.0318 / 0.0361	0 / 0 / 0
GUGGUUCCGUAGGCAG	0.831	0.560 / 0.625 / 1.03	0 / 0.0318 / 0	0 / 0 / 0

Excerpt, the final 4 entries:

GUGGUUCCGUAGCCUU (pool 1.06): inoculated region 0.853 / 0.582 / 0.649; leaf margin 0 / 0.0318 / 0; systemic leaves 0 / 0 / 0.
GUGGUUCCGUAGGCAA (pool 0.800): inoculated region 1.04 / 0.561 / 0.865; leaf margin 0 / 0.0318 / 0.433; systemic leaves 0 / 0 / 0.
GUGGUUCCGUAGGCAC (pool 0.954): inoculated region 0.853 / 0.690 / 1.00; leaf margin 0.0283 / 0.0318 / 0.0361; systemic leaves 0 / 0 / 0.
GUGGUUCCGUAGGCAG (pool 0.831): inoculated region 0.560 / 0.625 / 1.03; leaf margin 0 / 0.0318 / 0; systemic leaves 0 / 0 / 0.

Source: Wu et al. 2024 (doi:10.1371/journal.ppat.1012142), supplementary data.